{"source": "PubChem BioAssay AID504761 (Drosophila RNAi Screening Center, 2011)", "purpose": "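Fly genes whose silencing reduces dengue virus type 2 infection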 (primary screen)", "cells": "D.Mel-2 cells from Drosophila", "reagent": "long dsRNA against Drosophila genes", "treatment": "infection with dengue virus type 2; dose and infection time not stated", "measured": "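Per well on two replicate plates, imaging gave the percent of cells positive for viral envelope protein, ranked by infection, and a nuclear count of cells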", "reading the numbers": "infection score: higher = more virus-infected cells; cell count: higher = more cells in the well", "rule for the call": "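Very low infection ranking in both replicate wells (chance probability at most 0.065), then a retest showing infection dropped 1.5-fold or more at p below 0.05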", "calls": "active = confirmed: knock-down lowers infection; inactive = not picked or not confirmed", "note": "The screen tested about 22,000 reagents; shown is an unselected part of those with a known target gene and a result. Of all reagents, 116 (0.52%) are marked active. 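Calls depend on retest data that are not deposited; infection was ranked per plate without normalising between plates; the unit of the infection score is not given.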 Raw values vary from plate to plate and are shown uncorrected. Not all columns of the deposit are shown. Not stated in the record: the amount of reagent, the time to read-out."}
{"target gene": "Pyroxd1 (GeneID 35296)", "DRSC id": "DRSC02098", "infection score, replicate 1": 2.23, "cell count, replicate 1": 1477, "Outcome": "inactive"}
{"target gene": "Nepl7 (GeneID 34671)", "DRSC id": "DRSC02495", "infection score, replicate 1": 0.83, "cell count, replicate 1": 6504, "Outcome": "inactive"}
{"target gene": "Nepl7 (GeneID 34671)", "DRSC id": "DRSC27685", "infection score, replicate 1": 14.4, "cell count, replicate 1": 6406, "Outcome": "inactive"}
{"target gene": "pzg (GeneID 40351)", "DRSC id": "DRSC11848", "infection score, replicate 1": 3.35, "cell count, replicate 1": 6441, "Outcome": "inactive"}
{"target gene": "CG31867 (GeneID 261614)", "DRSC id": "DRSC03338", "infection score, replicate 1": 10.5, "cell count, replicate 1": 6176, "Outcome": "inactive"}
{"target gene": "CG5885 (GeneID 34314)", "DRSC id": "DRSC02910", "infection score, replicate 1": 9.2, "cell count, replicate 1": 6327, "Outcome": "inactive"}
{"target gene": "CG5885 (GeneID 34314)", "DRSC id": "DRSC28761", "infection score, replicate 1": 7.97, "cell count, replicate 1": 2447, "Outcome": "inactive"}
{"target gene": "CG13810 (GeneID 38278)", "DRSC id": "DRSC08344", "infection score, replicate 1": 3.54, "cell count, replicate 1": 6074, "Outcome": "inactive"}
{"target gene": "CG13810 (GeneID 38278)", "DRSC id": "DRSC22838", "infection score, replicate 1": 1.71, "cell count, replicate 1": 6334, "Outcome": "inactive"}
{"target gene": "CG13810 (GeneID 38278)", "DRSC id": "DRSC27859", "infection score, replicate 1": 8.17, "cell count, replicate 1": 6473, "Outcome": "inactive"}
{"target gene": "CAH1 (GeneID 34786)", "DRSC id": "DRSC29399", "cell count, replicate 1": 349, "Outcome": "inactive"}
{"target gene": "Qsox1 (GeneID 36464)", "DRSC id": "DRSC06878", "infection score, replicate 1": 2.34, "cell count, replicate 1": 6400, "Outcome": "inactive"}
{"target gene": "Qsox1 (GeneID 36464)", "DRSC id": "DRSC29927", "infection score, replicate 1": 6.78, "cell count, replicate 1": 6016, "Outcome": "inactive"}
{"target gene": "CG9701 (GeneID 39872)", "DRSC id": "DRSC11093", "infection score, replicate 1": 1.46, "cell count, replicate 1": 6666, "Outcome": "inactive"}
{"target gene": "CG9701 (GeneID 39872)", "DRSC id": "DRSC26332", "infection score, replicate 1": 2.26, "cell count, replicate 1": 6206, "Outcome": "inactive"}

2 of these entries, set out differently:
target gene | DRSC id | infection score, replicate 1 | cell count, replicate 1 | Outcome
CG5885 (GeneID 34314) | DRSC28761 | 7.97 | 2447 | inactive
CG13810 (GeneID 38278) | DRSC08344 | 3.54 | 6074 | inactive
